Measured values from several laboratories, pooled; numbers as filed in NIAID ChemDB.

All rows: host cell toxicity; cells: MRC-5; read-out: CC50

Rows are shuffled and stem from different studies. CCn is the concentration with n% toxicity to the cells. a–b is a range or a potency band.

smiles | result
Cc1cc(O)c2c(c1)/C(=C1\c3cc(C)cc(O)c3C(=O)c3c(O)cc(O)cc31)c1cc(O)cc(O)c1C2=O | 1.6 µM
CCCCCCCCCCCCCOCCCOP(=O)(O)C(=O)O | 1000 µM
O=C(O)P(=O)(O)O | 830 µM
CC(=O)Oc1ccc(/C=C/C(=O)OC[C@@H]2O[C@H](Oc3c(-c4ccc(O)cc4)oc4cc(O)cc(O)c4c3=O)[C@@H](OC(C)=O)[C@H](OC(C)=O)[C@H]2OC(C)=O)cc1 | >34 µM
NC1=Nc2c(ncn2CCCCCP(=O)(O)O)C(=O)C1 | >250 µM
CCCCCCCCSC[C@H](O)COP(=O)(O)C(=O)O | 205 µM
Cc1cn([C@H]2C[C@H](O)[C@@H](CO)O2)c(=O)[nH]c1=O | >826 µM
NC(=O)c1ncn([C@@H]2O[C@H](CO)[C@@H](O)[C@H]2O)n1 | 5–4500 µM
O=C1c2cccc(O)c2C(=O)c2c(O)cccc21 | >41.6 µM
NC(=S)c1cn([C@H]2C[C@H](O)[C@@H](CO)O2)c2ncnc(N)c12 | 14 µM
NC1=Nc2c(ncn2CCC(/C=C/P(=O)(O)O)CO)C(=O)C1 | >250 µM
CC(N)C12CC3CC(CC(C3)C1)C2 | 10–4000 µM
CCCCCCCCCCCCCCCCOCCCOP(=O)(O)C(=O)O | 320 µM
N=C(N)c1cn([C@H]2C[C@H](O)[C@@H](CO)O2)c2ncnc(N)c12 | 16 µM
CCCCCCCCCCCCCCCCCCOC[C@@H](O)COP(=O)(O)CC(=O)O | 32–100 µM
O=C(O)P(=O)(O)O | >1000 µM
O=C1c2cccc(O)c2C(=O)c2c(O)cc(CO)cc21 | >37 µM
N/C(=N/O)c1cn([C@@H]2O[C@H](CO)[C@@H](O)[C@@H]2O)c2ncnc(N)c12 | >100 µM
O=c1[nH]c(=O)n([C@H]2C[C@H](O)[C@@H](CO)O2)cc1F | >385 µM
CCCCCCCCCCCCCCCCCCOC[C@@H](O)COP(=O)(O)C(=O)O | 395 µM
NC(=O)c1cn([C@@H]2O[C@H](CO)[C@@H](O)[C@@H]2O)c2ncnc(N)c12 | 1.6 µM
CCCCCCCCCCCCCCCCCCCCCCSC[C@H](O)COP(=O)(O)C(=O)O | 383 µM
CCCCCCCCCCCCCCCCCCCCCCOCCCOP(=O)(O)C(=O)O | 210 µM
O=c1[nH]c(=S)n([C@@H]2O[C@H](CO)[C@@H](O)[C@@H]2O)cc1I | >518 µM

3 of the rows above, restated:

smiles	result
NC(=S)c1cn([C@H]2C[C@H](O)[C@@H](CO)O2)c2ncnc(N)c12	14 µM
CCCCCCCCSC[C@H](O)COP(=O)(O)C(=O)O	205 µM
Cc1cn([C@H]2C[C@H](O)[C@@H](CO)O2)c(=O)[nH]c1=O	>826 µM